Compound potency records, mixed from different reports. Data source: NIAID ChemDB in PubChem.

Common to all: growth or infection tests; organism: Herpes simplex virus 1; method: plaque count; measure: EC50

ECn: concentration that inhibits the pathogen or its effect by n%. Conditions beyond the fields shown may differ between rows. An empty or dashed field is not shown.

structure,cells,strain or isolate,result
CC(=O)OC[C@H]1[C@H](COC(C)=O)[C@@H](COC(C)=O)O[C@H]1n1cnc2c(N)ncnc21,MEF,Clinical isolate HL-34,179 µM
Nc1nc2c(ncn2CCC(CO)CO)c(=O)[nH]1,VERO,KD2,0.9 µM
CCOC(=O)c1ccc(OCCC2CCN(c3ccc(C)nn3)CC2)cc1,HEP-2/L-929/VERO,F,>19 µM
O=c1[nH]c(=O)n([C@H]2C[C@H](O)[C@@H](CO)O2)cc1/C=C/Br,VERO,KOS-M1,0.1 µM
O=c1[nH]c(=O)n([C@H]2C[C@H](O)[C@@H](CO)O2)cc1/C=C/Br,VERO,F-ACV-C4,>300 µM
Nc1nc2c(ncn2COCCO)c(=O)[nH]1,VERO,7401H,0.2 µg/mL
CC/C=C/C/C=C/C/C=C/CCCCCCCC(=O)OCC(CO[C@@H]1O[C@H](CO)[C@@H](O)[C@H](O)[C@H]1O)OC(=O)CCCCCCC/C=C/C/C=C/C/C=C/CC,VERO,KOS,<50 µg/mL
Nc1nc2c(ncn2CCCCO)c(=O)[nH]1,VERO,KJ502,5 µM
Nc1ncnc2c1ncn2[C@@H]1C[C@H](CO)[C@@H](O)[C@@H]1O,VERO,F-ACV-C4,56 µM
Cc1cn([C@H]2C[C@H](O)[C@]3(CO)C[C@H]23)c(=O)[nH]c1=O,VERO,-,0.02 µM
CCCCCCCCCCCCCCCCOCCCOP(=O)(O)OCC(CO)OCn1cnc2c(=O)[nH]c(N)nc21,MRC-5,-,1.1 µM
[O-][n+]1onc2ncnc(N3CC[N+]4(CC3)CC[N+]3(CCN(c5ncnc6no[n+]([O-])c56)CC3)CC4)c21,GMK,ANGPR,9.8 µM
CCOC(=O)c1ccc(OCCCOc2ccc(-c3snc(SC)c3C#N)cc2)cc1,HEP-2/L-929/VERO,F,>2 µM
Nc1c(N=Cc2ccc(C(F)(F)F)cc2)cc2cccnc2c1Cl,VERO 76,KOS,90 µM
COC(=O)Nc1nc2c3c(ccc2[nH]1)[C@@]1(C)CCC[C@@](C)(C(=O)OC)C1CC3,E6SM,-,>4 µg/mL
CSc1nsc(-c2ccc(OCCCOc3ccccc3)cc2)c1C#N,HEP-2/L-929/VERO,F,>20 µM
Nc1ncnc2c1ncn2[C@@H]1O[C@H](CO)[C@@H](O)[C@@H]1O,MEF,Clinical isolate HL-34,27 µM
S=c1cc(-c2ccccc2)s[nH]1,VERO,F strain,>90 µM
COC(=O)[C@]1(C)CCC[C@]2(C)c3ccc4[nH]cnc4c3CCC12,E6SM,-,>4 µg/mL
CCOC(=O)c1ccc(OCCOc2ccc(-c3snc(SC)c3C#N)cc2)cc1,HEP-2/L-929/VERO,F,>2 µM
Cn1cc(C(=O)NCc2ccc(Cl)cc2)c(=O)c2cc(CN3CCOCC3)ccc21,HFF,4E,2.8 µM
Nc1nc2c(ncn2CCC(CO)CO)c(=O)[nH]1,HEL,KOS,1.5 µg/mL
Cc1ccc(SCC(CF)OCn2cc(F)c(=O)[nH]c2=O)cc1,VERO,-,>50 µg/mL
CC/C=C/C/C=C/C/C=C/CCCCCCCC(=O)OCC(CO[C@@H]1O[C@H](CO)[C@H](O)[C@H](O)[C@H]1O)OC(=O)CCCCCCC/C=C\C/C=C\CCCCC,VERO,KOS,<50 µg/mL
Nc1nc(=O)n([C@H]2C[C@H](O)[C@@H](CO)O2)cc1/C=C/Br,RK-13,-,0.3 µM
S=C(S)OCc1ccccc1,-,-,80 µM
COC(=O)[C@]1(C)CCC[C@]2(C)c3ccc4[nH]c(C)nc4c3CCC12,E6SM,-,>4 µg/mL
CSC(=S)OC1CCCCC1,-,-,47.2 µM
CCCCCCCCCCCCCCCCCCCCCC(=O)OCC(CO[C@@H]1O[C@H](CO)[C@@H](O)[C@H](O)[C@H]1O)OC(=O)CCCCCCCCCCCCC,VERO,KOS,>50 µg/mL
Nc1nc2c(ncn2COCCO)c(=O)[nH]1,VERO,KOS,0.6 µg/mL
O=C(O)P(=O)(O)O,VERO,F-ACV-C4,29 µM
CSc1nsc(-c2cccc3ccccc23)c1C#N,VERO,F strain,>4 µM
Cc1ccc(S(=O)C[C@H](CF)OCn2cc(F)c(=O)[nH]c2=O)cc1,VERO,-,>200 µg/mL
CSc1nsc(C2CCCCC2)c1C#N,VERO,F strain,>50 µM
CCCCCCCCCCCCCCCCCC(=O)OCC(CO[C@@H]1O[C@H](CO)[C@@H](O)[C@H](O)[C@H]1O)OC(=O)CCCCCCCCCCC,VERO,KOS,>50 µg/mL
O=c1[nH]c(=O)n([C@H]2C[C@H](O)[C@@H](CO)O2)cc1/C=C/Br,VERO,KOS,0.15 µg/mL
Cn1cc(C(=O)NCc2ccc(Cl)cc2)c(=O)c2cc(/C=C\CO)cc(F)c21,VERO,KOS,2 µM
Nc1nc2c(ncn2COC(CO)CF)c(=O)[nH]1,VERO,F,7 µM
Nc1nc2c(ncn2CCC(CO)CO)c(=O)[nH]1,MRC-5,-,8.7 µM
Nc1nc2c(ncn2C/C=C\CO)c(=O)[nH]1,VERO,C42,0.8 µM
S=C(S)OC1CC2CCC1C2,-,-,19.8 µM
CCOC(=O)c1ccc(OCCCCOc2ccc(-c3snc(SC)c3C#N)cc2)cc1,HEP-2/L-929/VERO,F,>2 µM
Nc1nc2c(ncn2CCCC(CO)CO)c(=O)[nH]1,VERO,KJ502,0.5 µM
CCCCCCCCCCCCOC(=S)S,-,-,8.3 µM
CSc1nsc(-c2ccc(OCCOc3ccccc3)cc2)c1C#N,HEP-2/L-929/VERO,F,>20 µM
CCCCOc1ccc(-c2snc(SC)c2C#N)cc1,VERO,F strain,>50 µM
CCCCCCCC/C=C\CCCCCCCC(=O)OC(COC(=O)CCCCCCCCCCC)CO[C@@H]1O[C@H](CO)[C@@H](O)[C@H](O)[C@H]1O,VERO,KOS,>50 µg/mL
CSc1nsc(-c2cc[n+](C)cc2)c1C#N,VERO,F strain,>1000 µM
COC(=O)[C@]1(C)CCC[C@]2(C)c3cc(Br)c4nc(C(F)(F)F)[nH]c4c3CCC12,E6SM,-,>4 µg/mL
CCCCCCCCCCCCCCCCCCCCCC(=O)OCC(CO[C@@H]1O[C@H](CO)[C@@H](O)[C@H](O)[C@H]1O)OC(=O)CCCCCCCCCCCCCCCCCCCCC,VERO,KOS,>50 µg/mL
CSc1nsc(-c2ccc(OCCCCOc3ccc([N+](=O)[O-])cc3)cc2)c1C#N,HEP-2/L-929/VERO,F,>0.5 µM
O=C(NCc1ccc(Cl)cc1)c1cn2c3c(cc(CN4CCOCC4)cc3c1=O)OC(c1cccnc1)C2,HFF,E-115,>10.5 µM
CSc1nsc(-c2ccc(OCCOc3ccc([N+](=O)[O-])cc3)cc2)c1C#N,HEP-2/L-929/VERO,F,>1 µM
Cn1cc(C(=O)NCc2ccc(Cl)cc2)c(=O)c2cc(CN3CCOCC3)ccc21,VERO,F-M1,>20 µM

For reference, 6 entries again:

structure,cells,strain or isolate,result
O=c1[nH]c(=O)n([C@H]2C[C@H](O)[C@@H](CO)O2)cc1/C=C/Br,VERO,KOS-M1,0.1 µM
Nc1nc2c(ncn2COC(CO)CF)c(=O)[nH]1,VERO,F,7 µM
CCCCCCCC/C=C\CCCCCCCC(=O)OC(COC(=O)CCCCCCCCCCC)CO[C@@H]1O[C@H](CO)[C@@H](O)[C@H](O)[C@H]1O,VERO,KOS,>50 µg/mL
O=c1[nH]c(=O)n([C@H]2C[C@H](O)[C@@H](CO)O2)cc1/C=C/Br,VERO,KOS,0.15 µg/mL
CCOC(=O)c1ccc(OCCCOc2ccc(-c3snc(SC)c3C#N)cc2)cc1,HEP-2/L-929/VERO,F,>2 µM
Nc1nc2c(ncn2CCC(CO)CO)c(=O)[nH]1,HEL,KOS,1.5 µg/mL